Measurements as given in patent US20240109955A1 (published 2024).

Key:
[1] = target: SARS-CoV-2 D614G spike protein mutant (SARS-CoV-2, UniProt P0DTC2 14-1273); assay: cell-based or functional assay
[2] = target: SARS-CoV-2 Delta variant spike protein (SARS-CoV-2, UniProt P0DTC2 14-1273); assay: cell-based or functional assay

| Binder | IC80, pseudovirus neutralization [1] | IC50, pseudovirus neutralization [2] | IC80, pseudovirus neutralization [2] |
| --- | --- | --- | --- |
| MX1047 (bispecific antibody) chain 1: DTVMTQSPLSLPVTPGEPASISCRSSQSLLNSNGYNYLDWYVQKPGQSPQLLIYLGSNRASGVPDRFSGSGSGTDFTLKISRVEAEDVGVYYCMQPLQTPLFTFGPGTKVEIKGGSSGEIVLTQSPGTLSLSPGERATLSCRASQSVSSSYLAWYQQKPGQAPRLLIYSASSRATGIPDRFSGSGSGTDFTLTISRLEPEDFAVYFCQQYVGLTGWTFGQGTKVEIKGGGGSGGSGSGGGGSASGSGQMQLVQSGPEVKKPGTSVKVSCKASGFTFTSSAVQWVRQRQRLEWIGWIVVGSGNTNYAQKFQERVTITRDMSTSTAYMELSSLRSEDTAVYYCAAPNCSNVVCYDGFDIWGQGTMVTVSSGGSSGQVTLRESGPALVKPTQTLTLTCTFSGFSLSTRGVCVSWIRQPPGKALEWLAFIDWDDDKYYNTSLKTRLTISKDTSKNQVVLTMTNVHPVDTATYYCARISSHHGSSWCTTFDYWGQGALVTVSAASGGSGDKTHTCPPCPAPELLGGPSVFLFPPKPKDTLMISRTPEVTCVVVDVSHEDPEVKFNWYVDGVEVHNAKTKPREEQYNSYVVSVLTVLHQDWLNGKEYKCKVSNKALPAPIEKTISKAKGQPREPQVYTLPPSRDELTKNQVSLTCLVKGFYPSDIAVEWESNGQPENNYKTTPPVLDSDGSFFKKLTVDKSRWQQGNVFSCSVLHEALHSHYTQKSLSLSPG chain 2: EIVLTQSPGTLSLSPGERATLSCRASQSVSSSYLAWYQQKPGQAPRLLIYSASSRATGIPDRFSGSGSGTDFTLTISRLEPEDFAVYFCQQYVGLTGWTFGQGTKVEIKGGSSGQTVVTQEPSFSVSPGGTVTLTCGLSSGSVSTAYFPSWYQQTPGQAPRTLIYGTNTRSSGVPDRFSGSILGNKAALTITGAQADDESDYYCVLYMGRGIVVFGGGTKLTVLGGGGSGGSGSGGGGSASGSGQVQLVESGGGVVQPGRSLRLSCAASGFTLSSYGMHWVRQAPGKGLEWVAVISYDGSNKYYVDSVKGRFTISRDNSKNTLYLQMNSLRAEDTAVYYCRWAYWELLPDYYYGMDVWGQGTTVTVSSGGSSGQMQLVQSGPEVKKPGTSVKVSCKASGFTFTSSAVQWVRQRQRLEWIGWIVVGSGNTNYAQKFQERVTITRDMSTSTAYMELSSLRSEDTAVYYCAAPNCSNVVCYDGFDIWGQGTMVTVSSASGGSGDKTHTCPPCPAPELLGGPSVFLFPPKPKDTLMISRTPEVTCVVVDVSHEDPEVKFNWYVDGVEVHNAKTKPREEQYNSYVVSVLTVLHQDWLNGKEYKCKVSNKALPAPIEKTISKAKGQPREPQVYTLPPSRDELTKNQVSLTCLVKGFYPSDIAVEWESNGQPENNYKTTPPVLDSDGSFFKKLTVDKSRWQQGNVFSCSVLHEALHSHYTQKSLSLSPG | 0.00552 µg/mL | 0.0277 µg/mL | 0.0469 µg/mL |
| MX1049 (bispecific antibody) EIVLTQSPGTLSLSPGERATLSCRASQSVSSSYLAWYQQKPGQAPRLLIYSASSRATGIPDRFSGSGSGTDFTLTISRLEPEDFAVYFCQQYVGLTGWTFGQGTKVEIKGGSSGDTVMTQSPLSLPVTPGEPASISCRSSQSLLNSNGYNYLDWYVQKPGQSPQLLIYLGSNRASGVPDRFSGSGSGTDFTLKISRVEAEDVGVYYCMQPLQTPLFTFGPGTKVEIKGGGGSGGSGSGGGGSASGSGQVTLRESGPALVKPTQTLTLTCTFSGFSLSTRGVCVSWIRQPPGKALEWLAFIDWDDDKYYNTSLKTRLTISKDTSKNQVVLTMTNVHPVDTATYYCARISSHHGSSWCTTFDYWGQGALVTVSAGGSSGQMQLVQSGPEVKKPGTSVKVSCKASGFTFTSSAVQWVRQRQRLEWIGWIVVGSGNTNYAQKFQERVTITRDMSTSTAYMELSSLRSEDTAVYYCAAPNCSNVVCYDGFDIWGQGTMVTVSSASGGSGDKTHTCPPCPAPELLGGPSVFLFPPKPKDTLMISRTPEVTCVVVDVSHEDPEVKFNWYVDGVEVHNAKTKPREEQYNSYVVSVLTVLHQDWLNGKEYKCKVSNKALPAPIEKTISKAKGQPREPQVYTLPPSRDELTKNQVSLTCLVKGFYPSDIAVEWESNGQPENNYKTTPPVLDSDGSFFKKLTVDKSRWQQGNVFSCSVLHEALHSHYTQKSLSLSPG | 0.0128 µg/mL | 0.0188 µg/mL | 0.022 µg/mL |
